## Share of PSTVd loop 6 variants by leaf site

Values reported by Wu et al. 2024 (doi:10.1371/journal.ppat.1012142).

PSTVd intermediate strain, loop 6: wild type UGACCGCGAG, pool pattern UNNNCGNNNG; upper and lower strand joined, each 5' to 3', the first 5 letters being the upper strand, closing pairs included.

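A pool of all variants was put on leaves of three Nicotiana benthamiana plants. Samples came from the inoculated region at 5 days, the leaf margin at 10 and upper systemic leaves at 12.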

Numbers give reads per thousand; 0 = not seen among the reads, higher = more abundant.
Each value is the mean of three plants.
"Pool" is the share in the plasmid pool used as inoculum, on the same scale.
The inoculated region was read from the minus strand, the other sites from the plus strand.
IR is the inoculated region, LM the leaf margin, Sys the systemic leaves.
With 36,220-57,551 reads a sample, very low values are single reads.
Wild type was 20.7 per thousand in the pool and the most common sequence in every sample (inoculated region 195, 198, 203; leaf margin 629, 591, 734; systemic leaves 942, 870, 868).
The authors trace changes outside the varied positions to PCR and sequencing errors or to mutation in the plant; presence does not show that a variant is infectious alone.

UGUCCGCAGG (pool 0.222): IR 0.100; LM 0.0169; Sys 0.
UCGCCGCAAG (pool 0.235): IR 0.119; LM 0.00773; Sys 0.
UGGGCGCUGG (pool 0.118): IR 0.0589; LM 0; Sys 0.
UUCCCGCGCG (pool 0.235): IR 0.101; LM 0.0176; Sys 0.
UGACCGUGGG (pool 0.105): IR 0.137; LM 0.136; Sys 0.0466.
UCCUCGUUCG (pool 0.301): IR 0.0536; LM 0.00920; Sys 0.
UUAUCGAGUG (pool 0.288): IR 0.0597; LM 0; Sys 0.
UCGACGGGUG (pool 0.209): IR 0.0839; LM 0; Sys 0.
UAAUCGUGUG (pool 0.431): IR 0.114; LM 0.00773; Sys 0.
UCCACGCUUG (pool 0.222): IR 0.0898; LM 0.00920; Sys 0.
UACUCGUACG (pool 0.170): IR 0.101; LM 0.00773; Sys 0.
UCCCCGUCGG (pool 0.301): IR 0.101; LM 0.0176; Sys 0.0137.
UUGCCGCCCG (pool 0.288): IR 0.101; LM 0.0161; Sys 0.
UGACAGAAUG (pool 0.0131): IR 0.00579; LM 0; Sys 0.
UGAACGGCGG (pool 0.196): IR 0.107; LM 0.0169; Sys 0.
UUCUCGAAAG (pool 0.144): IR 0.0769; LM 0.0169; Sys 0.
UUCACGCGAG (pool 0.327): IR 0.186; LM 0.0736; Sys 0.0876.
UAUACGCCUG (pool 0.288): IR 0.102; LM 0.0232; Sys 0.
UUUCCGGAGG (pool 0.261): IR 0.125; LM 0.0232; Sys 0.
UUGUCGUACG (pool 0.209): IR 0.107; LM 0.0169; Sys 0.
UCCGCGUUGG (pool 0.275): IR 0.0823; LM 0; Sys 0.
UGCUCGGCCG (pool 0.222): IR 0.0896; LM 0; Sys 0.
UUAACGGUAG (pool 0.235): IR 0.813; LM 0.189; Sys 0.107.
UCCACGGUAG (pool 0.275): IR 0.0835; LM 0.00920; Sys 0.
UCACCGUUAG (pool 0.340): IR 0.126; LM 0.0232; Sys 0.
UCCCCGGCGG (pool 0.222): IR 0.0652; LM 0.00841; Sys 0.
UGCCCGUCAG (pool 0.275): IR 0.142; LM 0.0169; Sys 0.